Data on three substances can be found in patent publication US20240059752A1 (ZHEJIANG DOER BIOLOGICS CO., LTD., priority 2020, published 2024).

The data set is described as follows: general procedure: Fmoc solid-phase peptide synthesis; Rink amide MBHA resin (0.35 mmol/g); DIC/HOBt. To be noted: whole synthesis, scale of the general procedure 2.85 g resin.
Take “HAibQGT FTSD K (2xOEG-γE-COC18H36COOH) SKAibL D SQAAQDFVQWLLAGGPSSGAPPPS-NH2”: the “final purity (method not given)” value is reported as 95.3%.
For the substance “HAibQGT FTSD K (2xOEG-γE-COC18H36COOH) SKYL D SQAAQDFVQWLLAGGPSSGAPPPS-NH2”, the “final purity (method not given)” value is 97.1%.
The figure for “HAibQGT FTSDY SKAib K (2xOEG-γE-COC18H36COOH) D SQAAQDFVQWLLAGGPSSGAPPPS-NH2” is 96.0%.
